Target: C2I (Clostridium botulinum, UniProt O69275)
Assay: in vitro ADP-ribosylation of actin in HeLa lysate, Western blot
Conditions: 15-120 µM DSF; 1 nM C2I; biotinylated NAD+; 1 mM DTT, pH 7.5, 37°C, 30 min; HeLa lysate as actin source

## CCN(CC)C(=S)SSC(=S)N(CC)CC [disulfiram]
  in vitro ADP-ribosylation of actin in HeLa lysate, Western blot: indicating a concentration-dependent inhibition of C2I activity by DSF

— article PMC11427369 (Frontiers in Pharmacology, 2024)
